Measured values reported in PubChem BioAssay AID1956 (SRMLSC, 2009).
Activity calls are given as the source filed them. Rule as the data show it: active = maximum fold increase above about 1.5; inconclusive = no clear call, values can overlap the other calls; inactive = below that; tested in PC3 cells.

System: HSV replication augmentation in cells, fold increase
Assay: compounds boosting herpes simplex virus growth – fold increase, host cell viability (AID 1956)

O=C(NCC1(N2CCCCC2)CCCCC1)c1cccc([N+](=O)[O-])c1
EC50: inactive: > 25 µM
